Pooled drug test results. Numbers come from NIAID ChemDB, via PubChem.

Common to all: growth or infection tests; organism: HIV-1; measure: inhibition

Inhibition is in % at the dose shown (toxicity tests: loss of growth or viability). Lines come from different laboratories, so protocols vary. a–b is a range or a potency band. An empty or dashed field is not shown.

SMILES,conditions,method,strain,cell line,dose,result
O=C(NCCc1ccccc1)Nc1cnccn1,-,cytopathic effect / XTT,-,MT-4,10 µg/mL,100%
C[C@H]1CN(C(=O)c2ccccc2)CCN1C(=O)C(=O)c1c[nH]c2cccc(Cl)c12,-,luciferase,-,HeLa + HELA CD4+/CCR5,10 µM,79%
N#Cc1csc(NC(=O)NCCc2ccccc2)n1,-,cytopathic effect / XTT,-,MT-4,10 µg/mL,0%
Cc1ccc(-c2ccc3c(c2)C=C(C(=O)Nc2ccc(C[N+](C)(C)C4CCOCC4)cc2)CCC3)cc1,-,p24,TB5 CLADE C,PBMC,1 µM,73%
CO[C@]1(C)OC[C@H]([C@@H]2CC(=O)C[C@H](c3ccccc3)C23C(=O)OC(C)(C)OC3=O)O[C@@]1(C)OC,-,MTT,NL4-3,SupT1,0.0001 µM,>45%
CC(C)[C@H](NC(=O)[C@H](CO)NC(=O)[C@H](CS)NC(=O)CCC(=O)NCCCOCCOCCCN)C(=O)N[C@H](C(=O)N[C@@H](CS)C(=O)NCC(=O)O)[C@@H](C)O,-,p24,p13,PBMC(PHA STIM.) + PBMC,1.8 µM,74%
Nc1ccc(S(=O)(=O)O)c2cccc(O)c12,-,p24,-,H9,20 µg/mL,50%
O=C1NC(=S)N[C@@H]1Cc1ccccc1,-,cytopathic effect / XTT,-,MT-4,10 µg/mL,28%
O=c1oc2cc(O)cc(O)c2c(O)c1-c1coc2c1c(=O)oc1cc(O)cc(O)c12,-,MTT,IIIB,MT-4,5 µM,75%
NCCSSCCN,-,p24,IIIB,PBL,100 µM,60%
CCCCCCCCCCCCCCc1sc(NC(=O)NCCc2ccccc2)nc1-c1ccc(Cl)cc1,-,cytopathic effect / XTT,-,MT-4,10 µg/mL,0%
N=C1Sc2ccccc2C2=NCCCN12,-,β-galactosidase,92RW016,PBMC,0.54 µM,90%
O=C(C(=O)N1CCN(C(=O)c2cccc(O)c2)CC1)c1c[nH]c2cccc(F)c12,-,luciferase,-,HeLa + HELA CD4+/CCR5,10 µM,>98%
O=C(NCCc1ccccc1)Nc1ncccn1,-,cytopathic effect / XTT,-,MT-4,1 µg/mL,0%
CCCCCCCCCCCCCCCCOP(=O)(OC[C@H]1OC(O)[C@@H](O)[C@@H](O)[C@@H]1O)OC[C@H]1O[C@@H](n2cc(C)c(=O)[nH]c2=O)C[C@@H]1N=[N+]=[N-],7 d,RT activity,LAV-Bru,U-937,0.2 µM,0%
NC1=NS(=O)(=O)N(Cc2ccccc2)c2ncn([C@H]3CS[C@@H](CO)O3)c21,-,-,RF,MT-4,100 µg/mL,0%
C[C@H]1CN(C(=O)c2ccccc2)CCN1C(=O)C(=O)c1c[nH]c2c(F)c(F)c(F)c(F)c12,-,luciferase,-,HeLa + HELA CD4+/CCR5,10 µM,>98%
O=C1OCC2OC(O)C(O)C(O)C2OC(=O)c2cc(O)c(O)c(O)c2-c2c(O)c(O)c3oc(=O)c4c(c(O)c(O)c5oc(=O)c2c3c54)-c2c1cc(O)c(O)c2O,-,p24,IIIB,H9,5 µg/mL,60%
O=C(C(=O)N1CCN(C(=O)c2ccc(Br)o2)CC1)c1c[nH]c2cccc(F)c12,-,luciferase,-,HeLa + HELA CD4+/CCR5,10 µM,>98%
CCCCCCCCNCC(O)CCCCCCCCCn1c(=O)c2c(ncn2C)n(C)c1=O,-,p24,LAV,U1(HIV-1 (LAV)) + U1,25 µM,90%
O=C(C(=O)N1CCN(C(=O)c2cccc(Br)c2)CC1)c1c[nH]c2ccccc12,-,RT activity,BRU,MT-2,10 µM,88.4%
CN1C(=O)[C@@H](Cc2ccccc2)NC1=S,-,RT activity,-,MT-4,10 µg/mL,7%
O=C1O[C@@H]2[C@@H](OC(=O)c3cc(O)c(O)c(O)c3-c3c1cc(O)c(O)c3O)[C@@H](O)O[C@@H]1COC(=O)c3cc(O)c(O)c(O)c3-c3c(O)c(O)c4oc(=O)c5c(c(O)c(O)c6oc(=O)c3c4c65)-c3c(cc(O)c(O)c3O)C(=O)O[C@@H]21,-,p24,IIIB,H9,20 µg/mL,70%
Nc1ncnc2c1ncn2COCCOP(=O)([O-])O[C@@H]1[C@H](O)[C@@H](COP(=O)([O-])O[C@@H]2[C@H](O)[C@@H](COP(=O)([O-])O[C@@H]3[C@H](O)[C@@H](CO)O[C@H]3n3cnc4c(N)ncnc43)O[C@H]2n2cnc3c(N)ncnc32)O[C@H]1n1cnc2c(N)ncnc21,-,RT activity,-,SupT1 + Sup-T1,300 µM,72%
O=C(C(=O)N1CCN(C(=O)c2ccccc2)CC1)c1c[nH]c2cc(Cl)ccc12,-,RT activity,BRU,MT-2,10 µM,95.6%
O=C(NCCc1ccccc1)Nc1ccccc1,-,cytopathic effect / XTT,-,MT-4,10 µg/mL,25%
Cc1cn([C@H]2C[C@H](N=[N+]=[N-])[C@@H](COP(=O)(O)OCCO[C@H]3O[C@H](CO)[C@@H](O)[C@H](O)[C@@H]3O)O2)c(=O)[nH]c1=O,26 d,RT activity,LAV-Bru,CEM,25 µM,89%
O=S(=O)(O)c1ccc(-c2c3nc(c(-c4ccc(S(=O)(=O)O)cc4)c4ccc([nH]4)c(-c4ccc(S(=O)(=O)O)cc4)c4nc(c(-c5ccccc5)c5ccc2[nH]5)C=C4)C=C3)cc1,-,β-galactosidase,IIIB,MAGI,0.5 µg/mL,50%
CCN(CC)C(=S)S,-,p24,LAV,PBL,0.00000025 µg/mL,17%
Nc1ccn([C@H]2C=C[C@@H](CO)O2)c(=O)n1,-,RT activity,LAV,MT-2,1 µM,92%
Nc1ncnc2c1ncn2[C@@H]1O[C@H](COP(=O)(O)O[C@@H]2[C@H](O)[C@@H](COP(=O)(O)O[C@@H]3[C@H](O)[C@@H](CO)O[C@H]3n3cnc4c(N)ncnc43)O[C@H]2n2cnc3c(N)ncnc32)[C@@H](O)[C@H]1O,-,syncytia,-,SupT1 + Sup-T1,300 µM,67%
CCCCN1C(=O)[C@@H](Cc2ccccc2)NC1=S,-,cytopathic effect / XTT,-,MT-4,10 µg/mL,20–52%
CCCCCCCCCCCCCCCCOP(=O)(OCCO[C@@H]1O[C@H](CO)[C@@H](O)[C@H](O)[C@@H]1O)OC[C@H]1O[C@@H](n2cc(C)c(=O)[nH]c2=O)C[C@@H]1N=[N+]=[N-],26 d,RT activity,LAV-Bru,CEM,1 µM,0%
CC1=CN([C@H]2CS[C@@H](CO)O2)S(=O)(=O)NC1=O,-,-,RF,MT-4,100 µg/mL,0%
O=C(O)C1=C[C@@H](OC(=O)c2cc(O)c(O)c(O)c2)[C@@H](OC(=O)c2cc(O)c(O)c(O)c2)[C@H](OC(=O)c2cc(O)c(O)c(O)c2)C1,-,p24,IIIB,H9,0.2 µg/mL,0%
O=S(=O)(O)c1c2ccccc2c(-c2c3nc(c(-c4c5ccccc5c(S(=O)(=O)O)c5ccccc45)c4ccc([nH]4)c(-c4c5ccccc5c(S(=O)(=O)O)c5ccccc45)c4nc(c(-c5c6ccccc6c(S(=O)(=O)O)c6ccccc56)c5ccc2[nH]5)C=C4)C=C3)c2ccccc12,-,β-galactosidase,IIIB,MAGI,50 µg/mL,97%
O=P(O)(O)OP(=O)(O)OP(=O)(O)O,-,RT activity,IIIB,H9,100 µg/mL,3%
NC1=NS(=O)(=O)N([C@@H]2CS[C@@H](CO)O2)C=C1,-,-,RF,MT-4,100 µg/mL,0%
C[C@H]1[C@H](O)[C@@H](C)/C=C/C=C/C=C/C=C/C=C/C=C/C=C/[C@H](O[C@@H]2O[C@H](C)[C@@H](O)[C@H](N)[C@@H]2O)C[C@@H]2O[C@](O)(C[C@@H](O)C[C@@H](O)CC[C@H](O)[C@@H](O)C[C@@H](O)CC(=O)O[C@H]1C)C[C@H](O)[C@H]2C(=O)O,-,RT activity,NL4-3 WT,PBL,10 µM,90%
Nc1ncnc2c1ncn2COCCOP(=O)(O)O[C@@H]1C[C@@H](COP(=O)(O)O[C@@H]2C[C@@H](COP(=O)(O)O[C@@H]3C[C@@H](CO)O[C@H]3n3cnc4c(NCc5ccccc5)ncnc43)O[C@H]2n2cnc3c(N)ncnc32)O[C@H]1n1cnc2c(N)ncnc21,-,syncytia,-,SupT1 + Sup-T1,10 µM,86%
CCOc1cccc2[nH]cc(C(=O)C(=O)N3CCN(C(=O)c4ccccc4)CC3)c12,-,luciferase,-,HeLa + HELA CD4+/CCR5,10 µM,>98%
CC(C)[C@H](NC(=O)[C@H](Cc1ccccc1)C[C@H](O)[C@H](Cc1ccccc1)NC(=O)OC(C)(C)C)C(=O)N[C@@H](Cc1ccccc1)C(=O)N1CCOCC1,-,RT activity,LAV,PBL,0.1 µM,95%
CC(C)[C@H](NC(=O)[C@H](CO)NC(=O)[C@@H](N)CS)C(=O)N[C@H](C(=O)N[C@@H](CS)C(=O)NCC(=O)O)[C@@H](C)O,-,p24,IIIB,PBMC(PHA STIM.) + PBMC,0.66 µM,79%
O=C(CCCCCCCCCCC(=O)Nc1cc(S(=O)(=O)O)cc2cc(S(=O)(=O)O)cc(O)c12)Nc1cc(S(=O)(=O)O)cc2cc(S(=O)(=O)O)cc(O)c12,-,syncytia,-,MOLT-3,20 µg/mL,82%
CC[C@H](CO)Nc1nc(NCc2ccc(-c3ccccc3)cc2)n2ncc(C(C)C)c2n1,-,trypan blue,-,U1,0.05 µM,1–5%
O=C1C=CN([C@H]2CS[C@@H](CO)O2)S(=O)(=O)N1,-,-,RF,MT-4,100 µg/mL,0%
Nc1ccn([C@H]2CC[C@@H](CO)O2)c(=O)n1,-,cytopathic effect,IIIB,ATH8,0.1 µM,75%
CC(=O)N1CCC(C(=O)N(CCCN2CCC(Cc3ccc(C(N)=O)cc3)CC2)c2ccc(C)c(Cl)c2)CC1,-,p24,KK Clinical isolates,PBMC,0.012 µM,90%
O=C(O)C[C@@H]1C(=O)O[C@H]2[C@@H]3OC(=O)c4cc(O)c(O)c(O)c4-c4c(cc(O)c(O)c4O)C(=O)OC[C@H]2O[C@@H](OC(=O)c2cc(O)c(O)c(O)c2)[C@@H]3OC(=O)c2cc(O)c(O)c3c2[C@H]1[C@H](O)C(=O)O3,-,p24,IIIB,H9,5 µg/mL,80%
CC1(C)[C@@H](O[C@H]2O[C@H](C(=O)O)[C@@H](O)[C@H](O)[C@H]2O[C@@H]2O[C@H](C(=O)O)[C@@H](O)[C@H](O)[C@H]2O)CC[C@]2(C)[C@H]3C(=O)C=C4[C@@H]5C[C@@](C)(C(=O)O)CC[C@]5(C)CC[C@@]4(C)[C@]3(C)CC[C@@H]12,-,antigen,IIIB,MT-4,1200 µM,99.2%
O=C(O)C[C@H]1C(=O)O[C@H]2[C@H](OC(=O)c3cc(O)c(O)c(O)c3)[C@@H](OC(=O)c3cc(O)c(O)c4c3[C@H]1[C@H](O)C(=O)O4)[C@H](OC(=O)c1cc(O)c(O)c(O)c1)O[C@@H]2COC(=O)c1cc(O)c(O)c(O)c1,-,p24,IIIB,H9,5 µg/mL,80%
N=C1Sc2ccccc2C2=NCCCN12,-,ELISA,98IN022,PBMC,1.48 µM,90%

A second listing of 4 rows from above:

SMILES,conditions,method,strain,cell line,dose,result
C[C@H]1CN(C(=O)c2ccccc2)CCN1C(=O)C(=O)c1c[nH]c2cccc(Cl)c12,-,luciferase,-,HeLa + HELA CD4+/CCR5,10 µM,79%
CO[C@]1(C)OC[C@H]([C@@H]2CC(=O)C[C@H](c3ccccc3)C23C(=O)OC(C)(C)OC3=O)O[C@@]1(C)OC,-,MTT,NL4-3,SupT1,0.0001 µM,>45%
CCCCCCCCCCCCCCCCOP(=O)(OC[C@H]1OC(O)[C@@H](O)[C@@H](O)[C@@H]1O)OC[C@H]1O[C@@H](n2cc(C)c(=O)[nH]c2=O)C[C@@H]1N=[N+]=[N-],7 d,RT activity,LAV-Bru,U-937,0.2 µM,0%
CCCCCCCCNCC(O)CCCCCCCCCn1c(=O)c2c(ncn2C)n(C)c1=O,-,p24,LAV,U1(HIV-1 (LAV)) + U1,25 µM,90%